Biological target: T1, CdtB (subunit of typhoid toxin, as in the crystal structure; 6×His tagged) (Salmonella enterica serovar Typhi, UniProt Q8Z6A7 23-269)
T1 sequence: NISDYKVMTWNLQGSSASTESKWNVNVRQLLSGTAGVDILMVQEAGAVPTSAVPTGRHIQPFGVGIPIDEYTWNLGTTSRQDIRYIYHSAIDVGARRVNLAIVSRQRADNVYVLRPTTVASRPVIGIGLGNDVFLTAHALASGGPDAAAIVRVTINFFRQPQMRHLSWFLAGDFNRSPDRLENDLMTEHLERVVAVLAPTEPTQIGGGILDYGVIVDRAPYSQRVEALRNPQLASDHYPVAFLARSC
Assay: crystal structure of typhoid toxin

B1: PltB pentamer (B subunit of typhoid toxin, as in the crystal structure) (other)
chain: EWTGDNTNAYYSDEVISELHVGQIDTSPYFCIKTVKANGSGTPVVACAVSKQSIWAPSFKELLDQARYFYSTGQSVRIHVQKNIWTYPLFVNTFSANALVGLSSCSATQCFGPK
- binding result: no binding
